Results of unrelated studies side by side (data: NIAID ChemDB).

All rows: whole-cell or culture tests; measure: MIC

Lines come from different laboratories, so protocols vary.

structure | agent | strain | result
CCCCCCCCCCCCCCCCC(=O)NC(C)(CCC(=O)O)CCC(=O)O | Mycobacterium marinum | ATCC 927 | 286 µg/mL
CN[C@@H]1[C@H](O[C@H]2[C@H](O[C@H]3[C@H](O)[C@@H](O)[C@H](N=C(N)N)[C@@H](O)[C@@H]3N=C(N)N)O[C@@H](C)[C@]2(O)C=O)O[C@@H](CO)[C@H](O)[C@H]1O | Mycobacterium avium intracellulare | N-752 (HIV-) | 0.125 µg/mL
CC[C@H]1OC(=O)[C@H](C)[C@@H](O[C@H]2C[C@@](C)(OC)[C@@H](OC(C)=O)[C@H](C)O2)[C@H](C)[C@@H](O[C@@H]2O[C@H](C)C[C@H](N(C)C)[C@H]2O)C(C)(O)C[C@@H](C)/C(=N\OCCCCOc2ccccc2)[C@H](C)[C@@H](O)[C@]1(C)O | Mycobacterium avium complex | 20096 (clarithromycin-resistant) | 3.13 µg/mL
CO[C@H]1/C=C/O[C@@]2(C)Oc3c(C)c(O)c4c(O)c(cc(O)c4c3C2=O)NC(=O)/C(C)=C\C=C\[C@H](C)[C@H](O)[C@@H](C)[C@@H](O)[C@@H](C)[C@H](OC(C)=O)[C@@H]1C | Mycobacterium marinum | ATCC 927 | 0.8 µg/mL
CCCCCCCCCCCCO/N=C1\[C@H](C)CC(C)(O)[C@H](O[C@@H]2O[C@H](C)C[C@H](N(C)C)[C@H]2O)[C@@H](C)[C@H](OC2C[C@@](C)(OC)[C@@H](O)[C@H](C)O2)[C@@H](C)C(=O)O[C@H](CC)[C@@](C)(O)[C@H](O)[C@H]1C | Mycobacterium avium intracellulare | 20066 (clarithromycin-susceptible) | 50 µg/mL
C[C@@H]1CN(c2c(F)c(N)c3c(=O)c(C(=O)O)cn(C4CC4)c3c2F)C[C@H](C)N1 | Mycobacterium avium complex | N-265 (HIV-) | 2 µg/mL
CCCCCCCCCCCN(CCCCCCCCCCC)C(=O)NC(CCC(=O)O)(CCC(=O)O)CCC(=O)O | Mycobacterium chelonae | EO-P-1 | 72 µg/mL
Nc1ccc(S(=O)(=O)c2ccc(N)cc2)cc1 | Mycobacterium avium complex | DW20 | 64 µg/mL
CC[C@H]1OC(=O)[C@H](C)[C@@H](O[C@H]2C[C@@](C)(OC)[C@@H](OC(C)=O)[C@H](C)O2)[C@H](C)[C@@H](O[C@@H]2O[C@H](C)C[C@H](N(C)C)[C@H]2O)C(C)(O)C[C@@H](C)/C(=N\OCC2CCCCC2)[C@H](C)[C@@H](O)[C@]1(C)O | Mycobacterium avium complex | 20096 (clarithromycin-resistant) | 6.25 µg/mL
CO[C@@]1(NC(=O)Cn2cnnn2)C(=O)N2C(C(=O)O)=C(CSc3nnc(C)s3)CSC21 | Mycobacterium fortuitum | 1263 | 100 µg/mL
CCCCCCCCCCCCC(CCCCCCCCCCCC)NC(=O)NC(CCC(=O)O)(CCC(=O)O)CCC(=O)O | Mycobacterium marinum | ATCC 927 | 27 µg/mL
CC[C@H]1OC(=O)[C@H](C)[C@@H](O[C@H]2C[C@@](C)(OC)[C@@H](OC(C)=O)[C@H](C)O2)[C@H](C)[C@@H](O[C@@H]2O[C@H](C)C[C@H](N(C)C)[C@H]2OC(=O)NN2CCCCC2)C(C)(O)C[C@@H](C)/C(=N\OCCCC2CCCCC2)[C@H](C)[C@@H](O)[C@]1(C)O | Mycobacterium avium complex | 20096 (clarithromycin-resistant) | 3.13 µg/mL
CCCCCCCCCCC(CCCCCCCCCC)OC(=O)NC(CCC(=O)O)(CCC(=O)O)CCC(=O)O | Mycobacterium chelonae | EO-P-1 | 27 µg/mL
CC[C@H]1OC(=O)[C@H](C)[C@@H](O[C@H]2C[C@@](C)(OC)[C@@H](OC(C)=O)[C@H](C)O2)[C@H](C)[C@@H](O[C@@H]2O[C@H](C)C[C@H](N(C)C)[C@H]2OC(=O)NNCCOc2ccccc2)C(C)(O)C[C@@H](C)/C(=N\OCCCC2CCCCC2)[C@H](C)[C@@H](O)[C@]1(C)O | Mycobacterium avium complex | 20092 (clarithromycin-resistant) | 3.13 µg/mL
CO[C@H]1/C=C/O[C@@]2(C)Oc3c(C)c(O)c4c(O)c(c5c(c4c3C2=O)NC2(CCN(CC(C)C)CC2)N=5)=NC(=O)/C(C)=C\C=C\[C@H](C)[C@H](O)[C@@H](C)[C@@H](O)[C@@H](C)[C@H](OC(C)=O)[C@@H]1C | Mycobacterium avium intracellulare | 1296 | 0.5 µg/mL
CC[C@H]1OC(=O)[C@H](C)[C@@H](OC2C[C@@](C)(OC)[C@@H](O)[C@H](C)O2)[C@H](C)[C@@H](O[C@@H]2O[C@H](C)C[C@H](N(C)C)[C@H]2O)C(C)(O)C[C@@H](C)/C(=N\OCCCOc2ccccc2)[C@H](C)[C@@H](O)[C@]1(C)O | Mycobacterium avium complex | 20092 (clarithromycin-resistant) | 3.13 µg/mL
CO[C@@]1(NC(=O)CCCC(N)C(=O)O)C(=O)N2C(C(=O)O)=C(COC(C)=O)CSC21 | Mycobacterium fortuitum | 1004-8 | >100 µg/mL
CO[C@H]1/C=C/O[C@@]2(C)Oc3c(C)c(O)c4c(=O)c(c5oc6cc(N7CCN(CC(C)C)CC7)cc(=O)c6nc5c4c3=C2O)NC(=O)/C(C)=C\C=C\[C@H](C)[C@H](O)[C@@H](C)[C@@H](O)[C@@H](C)[C@H](OC(C)=O)[C@@H]1C | Mycobacterium avium intracellulare | N-919 (HIV-) | 0.0313 µg/mL
CC[C@H]1OC(=O)[C@H](C)[C@@H](OC2C[C@@](C)(OC)[C@@H](O)[C@H](C)O2)[C@H](C)[C@@H](O[C@@H]2O[C@H](C)C[C@H](N(C)C)[C@H]2O)C(C)(O)C[C@@H](C)/C(=N\OCCCCOc2ccccc2)[C@H](C)[C@@H](O)[C@]1(C)O | Mycobacterium avium intracellulare | 20066 (clarithromycin-susceptible) | 3.13 µg/mL
CO[C@@]1(NC(=O)CCCC(N)C(=O)O)C(=O)N2C(C(=O)O)=C(COC(N)=O)CSC21 | Mycobacterium fortuitum | 1047 | >100 µg/mL
CC[C@H]1OC(=O)[C@H](C)[C@@H](OC2C[C@@](C)(OC)[C@@H](OC(=O)CCCCc3ccccc3)[C@H](C)O2)[C@H](C)[C@@H](O[C@@H]2O[C@H](C)C[C@H](N(C)C)[C@H]2O)C(C)(O)C[C@@H](C)/C(=N\OCCCOc2ccccc2)[C@H](C)[C@@H](O)[C@]1(C)O | Mycobacterium avium intracellulare | 20066 (clarithromycin-susceptible) | 0.78 µg/mL
CCCCCCCCCCCCC(CCCCCCCCCCCC)OC(=O)NC(CCC(=O)O)(CCC(=O)O)CCC(=O)O | Mycobacterium marinum | ATCC 927 | 285 µg/mL
CO[C@@]1(NC(=O)C2SC(=C(C(N)=O)C(=O)[O-])S2)C(=O)N2C(C(=O)[O-])=C(CSc3nnnn3C)CS[C@@H]21 | Mycobacterium fortuitum | 1049 | 50 µg/mL
CC[C@H]1OC(=O)[C@H](C)[C@@H](O[C@H]2C[C@@](C)(OC)[C@@H](O)[C@H](C)O2)[C@H](C)[C@@H](O[C@@H]2O[C@H](C)C[C@H](N(C)C)[C@H]2O)[C@](C)(OC)C[C@@H](C)C(=O)[C@H](C)[C@@H](O)[C@]1(C)O | Mycobacterium avium complex | N-962 (HIV+) | 2 µg/mL
C[C@@H](O)[C@H]1C(=O)N2C(C(=O)O)=C(SCCN=CN)C[C@H]12 | Mycobacterium fortuitum | 1047 | 3.12 µg/mL
CO[C@H]1/C=C/O[C@@]2(C)Oc3c(C)c(O)c4c(=O)c(c5oc6cc(N7CCN(CC(C)C)CC7)cc(=O)c6nc5c4c3=C2O)NC(=O)/C(C)=C\C=C\[C@H](C)[C@H](O)[C@@H](C)[C@@H](O)[C@@H](C)[C@H](OC(C)=O)[C@@H]1C | Mycobacterium ulcerans | ATCC 19423 | 0.025 µg/mL
CCCCCCCCCCCCC(=O)O[C@H]1[C@H](C)OC(O[C@H]2[C@H](C)[C@@H](O[C@@H]3O[C@H](C)C[C@H](N(C)C)[C@H]3O)C(C)(O)C[C@@H](C)/C(=N\OCCCOc3ccccc3)[C@H](C)[C@@H](O)[C@](C)(O)[C@@H](CC)OC(=O)[C@@H]2C)C[C@@]1(C)OC | Mycobacterium avium complex | 20039 (clarithromycin-susceptible) | >50 µg/mL